Measured values from several laboratories, pooled; numbers as filed in NIAID ChemDB.

Common to all: tests in culture; organism: Candida albicans; measure: MIC

Conditions beyond the fields shown may differ between rows. Blank or dashed fields: not listed here.

SMILES,strain,value
C[C@@H](N1CCN(c2ccc(OC(F)(F)C(F)F)cc2)C1=O)C(O)(Cn1cncn1)c1ccc(F)cc1F,TA,<0.016 µg/mL
CCCOC[N+](C)(C)Cc1cc(N=Nc2ccc(C)cc2)ccc1O,-,331 µM
C[C@@H](N1CCN(c2ccc(OC(F)(F)F)cc2)C1=O)C(O)(Cn1cncn1)c1ccc(F)cc1F,TA,<0.016 µg/mL
CN(C)CCCNC(=O)c1cc(NC(=O)c2cc(NC(=O)c3cc(NC(=O)c4nsc(NCc5ccncc5)c4Cl)cn3C)cn2C)cn1C,38247,64 µg/mL
Clc1ccc(CC(Cn2ccnc2)c2ccc(Cl)cc2Cl)cc1,-,100 µg/mL
CCOC[N+](C)(C)Cc1cc(N=Nc2ccc(Cl)cc2)ccc1O,-,325 µM
C[C@@H](n1ccn(-c2ccc(C(F)(F)F)cc2)c1=O)C(O)(Cn1cncn1)c1ccc(F)cc1F,TA,<0.016 µg/mL
Clc1ccc(C(Cn2ccnc2)OCc2ccc(-c3ccccc3)cc2)cc1,3M,128 µg/mL
CCCCCCCCCCCCCCCCCC(=O)NC1CC(O)C(O)NC(=O)C2C(O)C(C)CN2C(=O)C(C(C)O)NC(=O)C(C(O)C(O)c2ccc(O)cc2)NC(=O)C2CC(O)CN2C(=O)C(C(C)O)NC1=O,MY1585,1 µg/mL
Cc1c(O)cccc1C(=O)N[C@@H](CSc1ccccc1)[C@H](O)CN1C[C@H]2CCCC[C@H]2C[C@H]1C(=O)NC(C)(C)C,I168RA,>64 µg/mL
Clc1ccccc1CC(Cn1ccnc1)c1ccccc1Cl,-,100 µg/mL
Cc1ccc(C(Cn2ccnc2)OCc2ccc(-c3ccccc3)cc2)cc1,CDCB385,128 µg/mL
CCCCCCCCCCOC[N+](C)(C)Cc1cc(N=Nc2ccc(C)cc2)ccc1O,-,1051 µM
C(=C\c1ccccc1)/COC(Cn1ccnc1)c1ccccc1,3M,64 µg/mL
Clc1ccc(CC(Cn2ccnc2)c2ccccc2Cl)c(Cl)c1,-,100 µg/mL
CC1CCC(OC[N+](C)(C)Cc2cc(N=Nc3ccc(Cl)cc3)ccc2O)CC1,-,256 µM
CO[C@@H]1C[C@H](C[C@@H](C)[C@@H]2CC(=O)[C@H](C)/C=C(\C)[C@@H](O)[C@@H](OC)C(=O)[C@H](C)C[C@H](C)/C=C/C=C/C=C(\C)[C@@H](N(OC)C(=O)N(C)C)C[C@@H]3CC[C@@H](C)[C@@](O)(O3)C(=O)C(=O)N3CCCC[C@H]3C(=O)O2)CC[C@H]1C(=O)ON(C)O,579A,50 µg/mL
Clc1ccc(C(Cn2ccnc2)OCc2ccc(-c3ccccc3)cc2)c(Cl)c1,CDCB385,64 µg/mL
C[C@@H](n1ccn(-c2ccc(OC(F)(F)C(F)F)cc2)c1=O)C(O)(Cn1cncn1)c1ccccc1F,TIMM1756,<0.016 µg/mL
Cn1cc(NC(=O)c2cc(NC(=O)c3cc(NC(=O)c4nsc(N5CCCCC5)c4Cl)cn3C)cn2C)cc1C(=O)NCCCCN,38247,4 µg/mL
C[C@@H](n1ncn(-c2ccc(OCC(F)(F)C(F)F)cc2)c1=O)[C@](O)(Cn1cncn1)c1ccc(F)cc1F,TIMM1756,0.016 µg/mL
CO[C@H]1C[C@@H]2CC[C@@H](C)[C@@](O)(O2)C(=O)C(=O)N2CCCC[C@H]2C(=O)O[C@H]([C@H](C)C[C@@H]2CC[C@H](c3nn[nH]n3)[C@H](OC)C2)CC(=O)[C@H](C)/C=C(\C)[C@@H](O)[C@@H](OC)C(=O)[C@H](C)C[C@H](C)CCCC/C=C/1C,10231,>100 µg/mL
CCCCCCNCCNc1snc(C(=O)Nc2cc(C(=O)Nc3cc(C(=O)Nc4cc(C(=O)NCCCN(C)C)n(C)c4)n(C)c3)n(C)c2)c1Cl,38247,>32 µg/mL
Cc1ccc(N=Nc2ccc(O)c(C[N+](C)(C)COC3CCCCCCCCCCC3)c2)cc1,-,1994 µM
Clc1ccc(C(Cc2c(Cl)cccc2Cl)Cn2ccnc2)cc1,-,>100 µg/mL
Clc1ccc(C(Cn2ccnc2)OC/C=C/c2ccccc2)cc1,PR1,>128 µg/mL
Cc1ccc(N=Nc2ccc(O)c(C[N+](C)(C)COCCCC3CCCCC3)c2)cc1,-,272 µM
C[C@@H](n1ccn(-c2ccc(OCC(F)(F)C(F)F)cc2)c1=O)C(O)(Cn1cncn1)c1ccc(F)cc1F,TIMM1756,<0.016 µg/mL
CCCCCCCCOC[N+](C)(C)Cc1cc(N=Nc2ccc(C)cc2)ccc1O,-,36 µM
CO[C@H]1C[C@@H]2CC[C@@H](C)[C@@](O)(O2)C(=O)C(=O)N2CCCC[C@H]2C(=O)O[C@H]([C@H](C)C[C@@H]2CC[C@@H](C(=O)ON(C)OC)[C@H](OC)C2)CC(=O)[C@H](C)/C=C(\C)[C@@H](O)[C@@H](OC)C(=O)[C@H](C)C[C@H](C)CCCC/C=C/1C,442,50 µg/mL
Cn1cc(NC(=O)c2cc(NC(=O)c3cc(NC(=O)c4nsc(NCCN5CCNCC5)c4Cl)cn3C)cn2C)cc1C(=O)NCCN1CCNCC1,38247,4 µg/mL
CCCCCCCCCCCCCC[C@@H](N)C(=O)N[C@H](C(=O)O)C1O[C@@H](n2ccc(=O)[nH]c2=O)[C@H](O)[C@@H]1O,124 (nikkomycin-S),>320 µg/mL
Clc1ccc(C(Cc2ccccc2)Cn2ccnc2)c(Cl)c1,-,100 µg/mL
C[C@@H](n1ccn(-c2ccc(OCC(F)(F)C(F)F)cc2)c1=O)C(O)(Cn1cncn1)c1ccccc1F,TIMM1756,<0.016 µg/mL
Clc1ccc(C(CCc2ccccc2Cl)Cn2ccnc2)c(Cl)c1,-,10 µg/mL
C[C@@H](c1ncncc1F)[C@](O)(Cn1cncn1)c1ccc(F)cc1F,Isolate 580,0.03 µg/mL
CO[C@H]1C[C@@H]2CC[C@@H](C)[C@@](O)(O2)C(=O)C(=O)N2CCCC[C@H]2C(=O)O[C@H]([C@H](C)C[C@@H]2CC[C@@H](C(=O)ON3CCCCC3)[C@H](OC)C2)CC(=O)[C@H](C)/C=C(\C)[C@@H](O)[C@@H](OC)C(=O)[C@H](C)C[C@H](C)CCCC/C=C/1C,10231,>100 µg/mL
C[N+](C)(COCC1CCCCC1)Cc1cc(N=Nc2ccc(Cl)cc2)ccc1O,-,68 µM
CO[C@@H]1C[C@H](C[C@@H](C)[C@@H]2CC(=O)[C@H](C)/C=C(\C)[C@@H](O)[C@@H](OC)C(=O)[C@H](C)C[C@H](C)/C=C/C=C/C=C(\C)[C@@H](N(O)C(=O)N(C)C)C[C@@H]3CC[C@@H](C)[C@@](O)(O3)C(=O)C(=O)N3CCCC[C@H]3C(=O)O2)CC[C@H]1C(=O)ON(C)O,10231,100 µg/mL
C[C@@H](N1CCN(c2ccc(C(F)(F)F)cc2)C1=O)C(O)(Cn1cncn1)c1ccc(F)cc1F,TA,<0.016 µg/mL